What all share (assay): cell-based or functional assay
Experiment [1] concerns the target HIV-1 envelope glycoprotein (gp120) of virus 7007 (HIV-1).
The target of experiment [2] is HIV-1 envelope glycoprotein (gp120) of virus 7015 (HIV-1).
Experiment [3] addresses HIV-1 envelope glycoprotein (gp120) of virus THRO (HIV-1).
Experiment [4] has as its target HIV-1 envelope glycoprotein (gp120) of virus 92US727 (HIV-1).
For experiment [5], the target named is HIV-1 envelope glycoprotein (gp120) of virus 8320 (HIV-1).
Experiment [6] concerns the target HIV-1 envelope glycoprotein (gp120) of virus CH040 (HIV-1).
For experiment [7], the target named is HIV-1 envelope glycoprotein (gp120) of virus 7141 (HIV-1).
The target in experiment [8] is HIV-1 envelope glycoprotein (gp120) of virus 8318 (HIV-1).
Experiment [9] has as its target HIV-1 envelope glycoprotein (gp120) of virus 7576 (HIV-1).
In experiment [10] the target is HIV-1 envelope glycoprotein (gp120) of virus 92HT593 (HIV-1).
In experiment [11] the target is HIV-1 envelope glycoprotein (gp120) of virus 7051 (HIV-1).
The target of experiment [12] is HIV-1 envelope glycoprotein (gp120) of virus 92US657 (HIV-1).
Experiment [13] deals with HIV-1 envelope glycoprotein (gp120) of virus 1413 (HIV-1).
The target in experiment [14] is HIV-1 envelope glycoprotein (gp120) of virus 8339 (HIV-1).
Experiment [15] concerns the target HIV-1 envelope glycoprotein (gp120) of virus 8398 (HIV-1).
The target of experiment [16] is HIV-1 envelope glycoprotein (gp120) of virus CH106 (HIV-1).
Experiment [17] deals with HIV-1 envelope glycoprotein (gp120) of virus RHPA (HIV-1).
The target in experiment [18] is HIV-1 envelope glycoprotein (gp120) of virus 7552 (HIV-1).
Experiment [19] concerns the target HIV-1 envelope glycoprotein (gp120) of virus 7595 (HIV-1).
The target in experiment [20] is HIV-1 envelope glycoprotein gp120 of virus CHO77 (HIV-1 subtype B, virus CHO77).
Experiment [21] addresses HIV-1 envelope glycoprotein gp120 of virus 92US657 (HIV-1 subtype B, isolate 92US657).
The target of experiment [22] is HIV-1 envelope glycoprotein gp120 of virus BaL (HIV-1 BaL (lab adapted strain, subtype …)).
Experiment [23] deals with HIV-1 envelope glycoprotein (gp120) of virus 92US712 (HIV-1).

A value given as a limit tells only on which side of the number the result lay.

B1: 1.1.113-1 (antibody, human IgG1, kappa)
heavy: QVQLLQSGAAVTKPGASVRVSCEASGYNIRDYFIHWWRQAPGQGLQWVGWINPKTGQPNNPRQFQGRVSLTRHASWDFDTFSFYMDLKALRSDDTAVYFCARQRSDYWDFDVWGSGTQVTVSSASTKGPSVFPLAPSSKSTSGGTAALGCLVKDYFPEPVTVSWNSGALTSGVHTFPAVLQSSGLYSLSSVVTVPSSSLGTQTYICNVNHKPSNTKVDKKVEPKSCDKTHTCPPCPAPELLAGPDVFLFPPKPKDTLMISRTPEVTCVVVDVSHEDPEVKFNWYVDGVEVHNAKTKPREEQYNSTYRVVSVLTVLHQDWLNGKEYKCKVSNKALPLPEEKTISKAKGQPREPQVYTLPPSREEMTKNQVSLTCLVKGFYPSDIAVEWESNGQPENNYKTTPPVLDSDGSFFLYSKLTVDKSRWQQGNVFSCSVLHEALHSHYTQKSLSLSPGK
light: not shown
For B1, the “Neutralization IC50” value was more than 50 µg/mL in experiment [1]; 0.44 µg/mL in [2]; 9.39 µg/mL in experiment [3]; more than 50 µg/mL in [4]; 0.28 µg/mL in [5]; 0.15 µg/mL in experiment [6]. The “Neutralization IC50” value in [7] was 27.9 µg/mL; in experiment [8], 0.14 µg/mL; in experiment [9], 0.28 µg/mL; in [10] it was 0.24 µg/mL; in experiment [11] it was 0.41 µg/mL; in experiment [12], 0.4 µg/mL. Besides, the “Neutralization IC50” value in experiment [13] was 3.67 µg/mL; in experiment [14], more than 50 µg/mL; in [15], more than 50 µg/mL; in experiment [16], 0.59 µg/mL; in experiment [17], 0.05 µg/mL; in experiment [18], more than 50 µg/mL. Moreover, the “Neutralization IC50” value in [19] is 1.78 µg/mL.

B2: Antibody 1.1.26-1 (antibody, human IgG1, kappa)
heavy: QVQLLQSGAAVTKPGASVRVSCEASGYNIRDYFIHWWRQAPGQGLQWVGWINPKTGQPNNPRQFQGRVSLTRHASWDFDTFSFYMDLKALRSDDTAVYFCARQRSDYWDFDVWGSGTQVTVSSASTKGPSVFPLAPSSKSTSGGTAALGCLVKDYFPEPVTVSWNSGALTSGVHTFPAVLQSSGLYSLSSVVTVPSSSLGTQTYICNVNHKPSNTKVDKKVEPKSCDKTHTCPPCPAPELLAGPDVFLFPPKPKDTLMISRTPEVTCVVVDVSHEDPEVKFNWYVDGVEVHNAKTKPREEQYNSTYRVVSVLTVLHQDWLNGKEYKCKVSNKALPLPEEKTISKAKGQPREPQVYTLPPSREEMTKNQVSLTCLVKGFYPSDIAVEWESNGQPENNYKTTPPVLDSDGSFFLYSKLTVDKSRWQQGNVFSCSVLHEALHSHYTQKSLSLSPGK
light: not shown
As to B2, the “Virus Neutralization Potency (IC50)” value came to 0.13 µg/mL in experiment [20], 1.49 µg/mL in [21] and 0.07 µg/mL in experiment [22].

B3: Antibody 1.33.1-1 (antibody, human IgG1, kappa)
heavy: QVQLVQSGAEVKKPGASVRVSCKASGYNIRDYFIHWWRQAPGQGLQWVGWINPKTGQPNNPRQFQGRVTLTRHASWDFDTFSFYMDLKALRSDDTATYFCARQRSDYWDFDVWGSGTQVTVSSASTKGPSVFPLAPSSKSTSGGTAALGCLVKDYFPEPVTVSWNSGALTSGVHTFPAVLQSSGLYSLSSVVTVPSSSLGTQTYICNVNHKPSNTKVDKKVEPKSCDKTHTCPPCPAPELLAGPDVFLFPPKPKDTLMISRTPEVTCVVVDVSHEDPEVKFNWYVDGVEVHNAKTKPREEQYNSTYRVVSVLTVLHQDWLNGKEYKCKVSNKALPLPEEKTISKAKGQPREPQVYTLPPSREEMTKNQVSLTCLVKGFYPSDIAVEWESNGQPENNYKTTPPVLDSDGSFFLYSKLTVDKSRWQQGNVFSCSVLHEALHSHYTQKSLSLSPGK
light: not shown
Consider B3, for which the “Virus Neutralization Potency (IC50)” value amounted to 0.17 µg/mL in [20], 0.95 µg/mL in experiment [21] and 0.11 µg/mL in experiment [22].

B4: Antibody 1.1.27-1 (antibody, human IgG1, kappa)
heavy: QVQLLQSGAAVTKPGASVRVSCEASGYNIRDYFIHWWRQAPGQGLQWVGWINPKTGQPNNPRQFQGRVSLTRHASWDFDTFSFYMDLKALRSDDTAVYFCARQRSDYWDFDVWGSGTQVTVSSASTKGPSVFPLAPSSKSTSGGTAALGCLVKDYFPEPVTVSWNSGALTSGVHTFPAVLQSSGLYSLSSVVTVPSSSLGTQTYICNVNHKPSNTKVDKKVEPKSCDKTHTCPPCPAPELLAGPDVFLFPPKPKDTLMISRTPEVTCVVVDVSHEDPEVKFNWYVDGVEVHNAKTKPREEQYNSTYRVVSVLTVLHQDWLNGKEYKCKVSNKALPLPEEKTISKAKGQPREPQVYTLPPSREEMTKNQVSLTCLVKGFYPSDIAVEWESNGQPENNYKTTPPVLDSDGSFFLYSKLTVDKSRWQQGNVFSCSVLHEALHSHYTQKSLSLSPGK
light: not shown
As for B4, the figures for the “Virus Neutralization Potency (IC50)” value in experiment [20], in experiment [21] and in experiment [22] were 0.1 µg/mL, 1.25 µg/mL and 0.12 µg/mL, respectively.

B5: 2.1.3-1 (antibody, human IgG1, kappa)
heavy: QVHLSQSGAAVTKPGASVRVSCEASGYKISDHFIHWWRQAPGQGLQWVGWINPKTGQPNNPRQFQGRVSLTRQASWDFDTYSFYMDLKAVRSDDTAIYFCARQRSDFWDFDVWGSGTQVTVSSASTKGPSVFPLAPSSKSTSGGTAALGCLVKDYFPEPVTVSWNSGALTSGVHTFPAVLQSSGLYSLSSVVTVPSSSLGTQTYICNVNHKPSNTKVDKKVEPKSCDKTHTCPPCPAPELLAGPDVFLFPPKPKDTLMISRTPEVTCVVVDVSHEDPEVKFNWYVDGVEVHNAKTKPREEQYNSTYRVVSVLTVLHQDWLNGKEYKCKVSNKALPLPEEKTISKAKGQPREPQVYTLPPSREEMTKNQVSLTCLVKGFYPSDIAVEWESNGQPENNYKTTPPVLDSDGSFFLYSKLTVDKSRWQQGNVFSCSVLHEALHSHYTQKSLSLSPGK
light: not shown
Turning to B5, the “Neutralization IC50” value in experiment [23] is 0.2 µg/mL; in experiment [1], more than 50 µg/mL; in experiment [2], 0.89 µg/mL; in experiment [3], 6.56 µg/mL; in experiment [4] it was 14.3 µg/mL; in experiment [5], 0.28 µg/mL. The “Neutralization IC50” value in [6] was 0.47 µg/mL; in [7] it was 13.8 µg/mL; in experiment [8], 0.24 µg/mL; in experiment [9] it was 0.49 µg/mL; in experiment [10], 0.3 µg/mL; in [11], 0.42 µg/mL. Also, the “Neutralization IC50” value in experiment [12] was 0.42 µg/mL; in experiment [13], 2.78 µg/mL; in [14], more than 50 µg/mL; in [15], more than 50 µg/mL; in experiment [16], 1.01 µg/mL; in experiment [17], 0.07 µg/mL. Also, the figures for the “Neutralization IC50” value in [18] and in [19] were more than 50 µg/mL and 1.35 µg/mL, respectively.

B6: 2.1.4-1 (antibody, human IgG1, kappa)
heavy: QVHLSQSGAAVTKPGASVRVSCEASGYKISDHFIHWWRQAPGQGLQWVGWINPKTGQPNNPRQFQGRVSLTRQASWDFDTYSFYMDLKAVRSDDTAIYFCARQRSDFWDFDVWGSGTQVTVSSASTKGPSVFPLAPSSKSTSGGTAALGCLVKDYFPEPVTVSWNSGALTSGVHTFPAVLQSSGLYSLSSVVTVPSSSLGTQTYICNVNHKPSNTKVDKKVEPKSCDKTHTCPPCPAPELLAGPDVFLFPPKPKDTLMISRTPEVTCVVVDVSHEDPEVKFNWYVDGVEVHNAKTKPREEQYNSTYRVVSVLTVLHQDWLNGKEYKCKVSNKALPLPEEKTISKAKGQPREPQVYTLPPSREEMTKNQVSLTCLVKGFYPSDIAVEWESNGQPENNYKTTPPVLDSDGSFFLYSKLTVDKSRWQQGNVFSCSVLHEALHSHYTQKSLSLSPGK
light: not shown
Take B6: the “Neutralization IC50” value in experiment [23] was 0.11 µg/mL; in experiment [1], more than 50 µg/mL; in [2] it was 0.59 µg/mL; in experiment [3], 4.97 µg/mL; in [4], 7.27 µg/mL; in [5], 0.23 µg/mL. Moreover, the “Neutralization IC50” value in experiment [6] stood at 0.36 µg/mL; in [7], 6.78 µg/mL; in experiment [8] it was 0.21 µg/mL; in experiment [9], 0.55 µg/mL; in experiment [10] it was 0.33 µg/mL; in [11], 0.46 µg/mL. The “Neutralization IC50” value in experiment [12] is 0.38 µg/mL; in [13], 2.16 µg/mL; in experiment [14], more than 50 µg/mL; in [15] it was more than 50 µg/mL; in experiment [16], 0.91 µg/mL; in experiment [17], 0.05 µg/mL. Besides, the “Neutralization IC50” value in [18] was more than 50 µg/mL; in experiment [19], 1.19 µg/mL.

These data come from patent US20220089698A1, “ANTIBODIES THAT TARGET HIV GP120 AND METHODS OF USE” (published 2022).
